A mixed list of measured activities; the numbers were collected in NIAID ChemDB.

Shared fields: growth or infection tests; agent: Epstein-Barr virus; cell line: DAUDI; read-out: EC50

ECn is the concentration giving n% inhibition of infection, replication or growth. Lines come from different laboratories, so protocols vary. An empty or dashed field is not shown.

smiles,method,result
O=C(NCc1ccc(Cl)cc1)c1cn2c3c(cc(CN4CCOCC4)cc3c1=O)OC(c1cccnc1)C2,hybridisation,>43 µM
Nc1ncnc2c1ncn2/C=C1\[C@H](CO)C1(F)F,ELISA,77 µM
COC(=O)C(C)NP(=O)(OC[C@@H]1C/C1=C/n1cc(N)c(=O)[nH]c1=O)Oc1ccccc1,ELISA,0.65 µM
CCCCCCCCCCCCCCCCOP(=O)(O)CO[C@H](CO)Cn1ccc(N)nc1=O,hybridisation,0.6 µM
Nc1nc2c(ncn2C/C=C2/CC2P(=O)(O)O)c(=O)[nH]1,-,1.1 µM
Nc1ncnc2c1ncn2[C@H]1C[C@@]12C[C@@H]2CO,ELISA,>216 µM
Nc1nc2c(ncn2[C@@H]2C[C@H](O)[C@@H](O)[C@H]2O)c(=O)[nH]1,antigen,2.9 µg/mL
COC(=O)C(C)NP(=O)(OC[C@@H]1C/C1=C\n1cc(N)c(=O)[nH]c1=O)Oc1ccccc1,ELISA,14.4 µM
Nc1ncnc2c1ncn2[C@H]1C[C@]12C[C@@H]2CO,ELISA,4.8 µM
CCCCCCCC/C=C\CCCCCCCCOCCOP(=O)(O)CO[C@H](CO)Cn1ccc(N)nc1=O,hybridisation,0.03 µM
Nc1nc2c(ncn2COCCO)c(=O)[nH]1,ELISA,9.3 µM
Nc1nc(Cl)c2ncn(/C=C3/C[C@H]3CO)c2n1,ELISA,1.2 µM
COC(=O)C(C)NP(=O)(OC[C@@H]1C/C1=C\n1cc(C)c(=O)[nH]c1=O)Oc1ccccc1,ELISA,>100 µM
Nc1ncnc2c1ncn2[C@H]1C[C@@]12C[C@H]2CO,ELISA,153 µM
Nc1nc2c(ncn2C=C2CC2CO)c(=O)[nH]1,-,1.4 µM
Nc1nc(NCC2CC2)c2ncn(/C=C3/C[C@@H]3CO)c2n1,ELISA,0.6 µM
CCCCCCCC/C=C\CCCCCCCOCCCOP1(=O)CO[C@@H](Cn2ccc(N)nc2=O)CO1,hybridisation,0.4 µM
Nc1ncnc2c1ncn2[C@H]1C[C@]12C[C@H]2CO,ELISA,22 µM
Cc1cn(C=C2CC2(F)CO)c(=O)[nH]c1=O,hybridisation,221 µM
CC(C)Nc1nc2cc(Cl)c(Cl)cc2n1[C@H]1O[C@@H](CO)[C@H](O)[C@@H]1O,hybridisation,5.1 µM
CCCCCCCC/C=C\CCCCCCCOCCOP1(=O)CO[C@@H](Cn2ccc(N)nc2=O)CO1,hybridisation,0.06 µM
Nc1nc2c(ncn2[C@H]2C[C@]23C[C@H]3CO)c(=O)[nH]1,ELISA,>199 µM

3 of the rows above, restated:

smiles | method | result
CCCCCCCC/C=C\CCCCCCCCOCCOP(=O)(O)CO[C@H](CO)Cn1ccc(N)nc1=O | hybridisation | 0.03 µM
CCCCCCCC/C=C\CCCCCCCOCCCOP1(=O)CO[C@@H](Cn2ccc(N)nc2=O)CO1 | hybridisation | 0.4 µM
CCCCCCCC/C=C\CCCCCCCOCCOP1(=O)CO[C@@H](Cn2ccc(N)nc2=O)CO1 | hybridisation | 0.06 µM